Results of unrelated studies side by side (data: NIAID ChemDB).

Shared fields: whole-cell or culture tests; species: HIV-1; measure: EC50

Neighbouring rows are from separate reports. ECn is the concentration giving n% inhibition of infection, replication or growth. Blank or dashed fields: not listed here.

compound	strain	cell line	read by	value
Cc1ccc(-c2nc3ccc(CNCC[C@@]45CC[C@]6(C)[C@H](CC[C@@H]7[C@@]8(C)CC[C@H](OC(=O)[C@H]9C[C@@H](C(=O)O)C9(C)C)C(C)(C)[C@@H]8CC[C@]76C)C4=C(C(C)C)C(=O)C5)cc3[nH]2)cn1	92HT599	MT-2	p24 / ELISA	<1 µM
NS(=O)(=O)c1ccc(NC(=O)COc2cccnc2-c2cccc3ccccc23)cc1	IIIB	MT-4	MTT / absorbance	41.5 µM
CCc1ccc(-c2c([C@H](OC(C)(C)C)C(=O)O)c(C)nc3ccc(Cl)cc23)cc1	-	C8166	luciferase / reporter gene	<20 µM
CC(C)C1=C2[C@H]3CC[C@@H]4[C@@]5(C)CC[C@H](OC(=O)[C@H]6C[C@@H](C(=O)O)C6(C)C)C(C)(C)[C@@H]5CC[C@@]4(C)[C@]3(C)CC[C@@]2([C@@H](O)CNC(=O)C(C)(C)NC(=O)c2ccc(Cl)cc2OCCN2CCCC2)CC1=O	92HT599	MT-2	p24 / ELISA	<1 µM
CCOP(=O)(CO[C@@]1(C2CC2)C[C@@H](n2cnc3c(N)ncnc32)[C@H](C)[C@@H]1C)OCC	-	T4	XTT / absorbance	>100 µM
Cc1ccc(NC(=O)COc2cccnc2-c2cccc3ccccc23)c([N+](=O)[O-])c1	IIIB	MT-4	MTT / absorbance	8.18 µM
CC1=CC2NC(CNC(=O)C3=CN4C[C@H]5OC[C@H](C)N5C(=O)C4C(=O)C3=O)=NC2C=C1	IIIB	CEM-SS	XTT	0.0386 µM
COC(=O)c1ccc(NC(=O)COc2cccnc2-c2cccc3ccccc23)c(Br)c1	IIIB	MT-4	MTT / absorbance	≥9.85 µM
CC(C)C1=C2[C@H]3CC[C@@H]4[C@@]5(C)CC[C@H](OC(=O)[C@H]6C[C@@H](C(=O)O)C6(C)C)C(C)(C)[C@@H]5CC[C@@]4(C)[C@]3(C)CC[C@@]2(CCNCc2ccccc2)CC1=O	92HT599	MT-2	p24 / ELISA	<1 µM
C=CCC(C(=O)O)c1c(-c2ccc(Cl)cc2)c2cc(Br)ccc2oc1=O	-	C8166	luciferase / reporter gene	<20 µM
C[C@H]1CO[C@@H]2CN3C=C(C(=O)NCc4cnccn4)C(=O)C(=O)C3C(=O)N12	IIIB	CEM-SS	XTT	0.0284 µM
Cc1cn([C@H]2C[C@H](N=[N+]=[N-])[C@@H](CO)O2)c(=O)[nH]c1=O	-	C8166	p24 / ELISA / antigen	0.04655 µM
Cc1cn([C@H]2C[C@H](N=[N+]=[N-])[C@@H](CO)O2)c(=O)[nH]c1=O	IIIB	C8166	MTT / ELISA	0.0025 µg/mL
CC(C)n1c(CNC(=O)C2=CN3C[C@H]4OC[C@H](C)N4C(=O)C3C(=O)C2=O)nc2ccccc21	IIIB	CEM-SS	XTT	0.0861 µM
S=c1[nH]c(=S)c2c3c(sc2[nH]1)CCCC3	-	CEM	absorbance	>6.5 µM
CCCC(C(=O)O)c1c(C)nc2ccc(Cl)cc2c1-c1ccc(Cl)c(C)c1	-	C8166	luciferase / reporter gene	<20 µM
C[C@@H]1CO[C@@]23CCC[C@@H]2N2C=C(C(=O)NCc4ccc(F)nc4F)C(=O)C(=O)C2C(=O)N13	IIIB	CEM-SS	XTT	0.0578 µM
CC(C)(C)c1ccc(-c2ncccc2OCC(=O)Nc2ccc(C(N)=O)cc2)cc1	IIIB	MT-4	MTT / absorbance	>197 µM
[2H]C(CO)(CNC[C@H](O)[C@@]12CC[C@]3(C)[C@H](CC[C@@H]4[C@@]5(C)CC[C@H](OC(=O)[C@H]6C[C@@H](C(=O)O)C6(C)C)C(C)(C)[C@@H]5CC[C@]43C)C1=C(C(C)C)C(=O)C2)NC(=O)c1ccc(Cl)cc1	92HT599	MT-2	p24 / ELISA	<1 µM
Cc1cc2c(cc1CNC(=O)C1=CN3C[C@H]4OC[C@H](C)N4C(=O)C3C(=O)C1=O)OCCO2	IIIB	CEM-SS	XTT	>0.01 µM
C=C(C)CC(C(=O)O)c1c(-c2ccc(Cl)cc2)c2cc(Br)ccc2oc1=O	-	C8166	luciferase / reporter gene	<20 µM
NC(=O)c1ccc(NC(=O)COc2cccnc2-c2cccc3ccccc23)cc1	IIIB	MT-4	MTT / absorbance	>29.4 µM
CC(C)C1=C2[C@H]3CC[C@@H]4[C@@]5(C)CC[C@H](OC(=O)[C@H]6C[C@@H](C(=O)O)C6(C)C)C(C)(C)[C@@H]5CC[C@@]4(C)[C@]3(C)CC[C@@]2(CCNC(=O)c2ccc(CN3CCC(O)CC3)cc2)CC1=O	92HT599	MT-2	p24 / ELISA	<1 µM
CC(C)(C)OC(=O)c1cccc(Cn2ccc3ccc(-c4ccc5ccn(Cc6cccc(C(=O)O)c6)c5c4)cc32)c1	IIIB	MAGI-CCR5	entry / luminescence	0.2 µM
Cc1nc2ccc(Br)cc2c(-c2ccc(Cl)cc2)c1C(OCCCn1cccc1)C(=O)O	-	C8166	luciferase / reporter gene	<20 µM
COc1cccc(CN(C(=O)OC(C)(C)C)c2cccc(-c3ccc4ccn(Cc5cccc(C(=O)O)c5)c4c3)c2)c1	IIIB	MAGI-CCR5	entry / luminescence	4.2 µM
Cc1cncc(C(=O)N(CCN(C)C)C[C@H](O)[C@@]23CC[C@]4(C)[C@H](CC[C@@H]5[C@@]6(C)CC[C@H](OC(=O)[C@H]7C[C@@H](C(=O)O)C7(C)C)C(C)(C)[C@@H]6CC[C@]54C)C2=C(C(C)C)C(=O)C3)n1	92HT599	MT-2	p24 / ELISA	<1 µM
CC(=O)O[C@H]1C[C@]2(C)O[C@]3(COC(=O)C3)[C@@H](OC(=O)c3ccccc3)C[C@]2(C)[C@H]2[C@H](OC(C)=O)CC[C@]3(CO3)[C@]12C	IIIB	C8166	MTT / ELISA	56.89 µg/mL
Cc1ccnc2c1NC(=O)c1cccnc1N2C1CC1	RES056	MT-4	MTT / absorbance	>15 µM
Cc1nc2ccc(Cl)cc2c(-c2ccc(Cl)nc2)c1C(OC(C)C)C(=O)O	-	C8166	luciferase / reporter gene	<20 µM
N=C1Sc2ccccc2C2=NCCCN12	92UG029	PBMC	β-galactosidase	1.18 µM
CCc1ccc(-c2c([C@H](OC(C)C)C(=O)O)c(C)nc3ccc(Cl)cc23)cc1	-	C8166	luciferase / reporter gene	<20 µM
CC(=O)O[C@H]1[C@H](OC(C)=O)[C@]2(C)O[C@@]3(COC(=O)C3)[C@@H](OC(=O)c3ccccc3)C[C@]2(C)[C@H]2CCC[C@]3(CO3)[C@]12C	IIIB	C8166	MTT / ELISA	67.27 µg/mL

The first 3 rows once more:

compound,strain,cell line,read by,value
Cc1ccc(-c2nc3ccc(CNCC[C@@]45CC[C@]6(C)[C@H](CC[C@@H]7[C@@]8(C)CC[C@H](OC(=O)[C@H]9C[C@@H](C(=O)O)C9(C)C)C(C)(C)[C@@H]8CC[C@]76C)C4=C(C(C)C)C(=O)C5)cc3[nH]2)cn1,92HT599,MT-2,p24 / ELISA,<1 µM
NS(=O)(=O)c1ccc(NC(=O)COc2cccnc2-c2cccc3ccccc23)cc1,IIIB,MT-4,MTT / absorbance,41.5 µM
CCc1ccc(-c2c([C@H](OC(C)(C)C)C(=O)O)c(C)nc3ccc(Cl)cc23)cc1,-,C8166,luciferase / reporter gene,<20 µM